The test system of assay [1] is Bifunctional dihydrofolate reductase-thymidylate synthase (Plasmodium falciparum K1), P13922 [UNDEFINED MUTATION]. Description: Ratio of Inhibition of the S108N mutant of dihydrofolate reductase (DHFR) to inhibition of wild type dihydrofolate reductase.
Assay [2] has the same test system. Description: Ratio of Inhibition of the C59R+S108N mutant of dihydrofolate reductase (DHFR) to inhibition of wild type dihydrofolate reductase.
Assay [3] deals with Bifunctional dihydrofolate reductase-thymidylate synthase (Plasmodium falciparum K1, UniProt P13922, S108N). Description: Inhibition of the S108N mutant of dihydrofolate reductase (DHFR). In outline:
(§1)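 Assay at 25 °C: 50 mM TES pH 7.0, 75 mM β-mercaptoethanol, 1 mg/mL BSA, 100 µM H2folate and 100 µM NADPH. NADPH oxidation followed at 340 nm. Ki derived from IC50 as Ki(1+[S]/Km), assuming competitive inhibition.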

The chains behind the UniProt entries cited, without tags or fusion partners.
UniProt P13922, whole entry, looked up, stated change not applied: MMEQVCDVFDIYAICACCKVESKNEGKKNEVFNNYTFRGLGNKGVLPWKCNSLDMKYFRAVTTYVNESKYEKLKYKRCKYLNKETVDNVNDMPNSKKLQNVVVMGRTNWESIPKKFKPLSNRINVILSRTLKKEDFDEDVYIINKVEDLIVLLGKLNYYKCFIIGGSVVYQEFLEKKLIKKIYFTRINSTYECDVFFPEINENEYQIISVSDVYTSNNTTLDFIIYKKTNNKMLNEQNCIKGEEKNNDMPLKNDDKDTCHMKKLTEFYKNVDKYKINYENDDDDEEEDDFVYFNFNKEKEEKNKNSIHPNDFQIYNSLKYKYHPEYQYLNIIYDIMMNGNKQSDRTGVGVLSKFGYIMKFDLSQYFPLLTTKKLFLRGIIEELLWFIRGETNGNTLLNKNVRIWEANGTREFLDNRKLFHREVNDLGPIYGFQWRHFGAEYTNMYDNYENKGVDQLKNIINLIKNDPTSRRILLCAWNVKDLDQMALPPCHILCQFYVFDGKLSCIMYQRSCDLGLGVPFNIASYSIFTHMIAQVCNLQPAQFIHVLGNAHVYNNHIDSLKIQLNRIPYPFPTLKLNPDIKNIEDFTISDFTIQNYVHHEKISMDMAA

Assay [4] has as its target Bifunctional dihydrofolate reductase-thymidylate synthase (Plasmodium falciparum K1, UniProt P13922). Description: Inhibition of the C59R+S108N mutant of dihydrofolate reductase (DHFR). Summed up:
as §1

The target of assay [5] is Bifunctional dihydrofolate reductase-thymidylate synthase (Plasmodium falciparum K1) (UniProt P13922). Description: Inhibition of mutant C59R+S108N dihydrofolate reductase (DHFR) relative to Pyr.
Assay [6] shares this target. Description: Inhibition of mutant S108N dihydrofolate reductase (DHFR) relative to Pyr.

The values that follow come from ChEMBL document CHEMBL1135602 (J Med Chem, 2002).

Broadly, the Ki is the equilibrium dissociation constant of an inhibitor or competing ligand from its target. Lower therefore signals higher affinity.

As for `CCc1nc(N)nc(N)c1-c1ccc(OCc2ccc(Cl)cc2Cl)c(OC)c1`, the Ratio in assay [1] is 20.9; in assay [2], 42.3. In addition, the values for the Ki in assay [3] and in assay [4] were 20.9 nM and 42.3 nM, respectively. Further, the figures for the Relative activity in assay [5] and in assay [6] were 0.8 and 0.7, respectively.

With `COc1cc(Cc2cnc(N)nc2N)ccc1OCc1cc(OC)c(OC)c(OC)c1`, the Ratio in assay [1] turned out to be 10.3; in assay [2], 14.5.
